Pooled drug test results. Numbers come from NIAID ChemDB, via PubChem.

Shared fields: host cell toxicity; cell line: TZM-bl; method: MTT; measure: CC50

Lines come from different laboratories, so protocols vary.

smiles,value
Cc1cc(C)nc(N2C(=O)CSC2c2c(Cl)ncnc2Cl)n1,98.26 µM
Fc1ccc(/C=C/c2cc(Cl)c3ccccc3n2)c(C(F)(F)F)c1,29.06 µM
CCOC(=O)C(N)(c1c[nH]c2ccc(O)cc12)C(F)(F)F,79.4 µM
CC(C)C[C@H](N)C(=O)O.[Na+],53.99 µM
COC(=O)C(O)(c1c[nH]c2ccc(F)cc12)C(F)(F)F,385 µM
COC(=O)C(N)(c1c[nH]c2ccc(Br)cc12)C(F)(F)F,114 µM
O=C1OC(C(Cl)c2ccccc2F)c2ccccc21,119 µM
O=C1CSC(c2c(Cl)cncc2Cl)N1n1cnnc1,95.49 µg/mL
CCOC(=O)C(N)(c1c[nH]c2ccc(C(=O)OC)cc12)C(F)(F)F,>116 µM
O=C1CSC(c2c(F)cccc2Cl)N1n1cnnc1,41.1 µg/mL
CC1=CC2=C(C(C)C)C(O)C(=O)/C(=C\N[C@H](CC(C)C)C(=O)O)C2C(O)=C1c1c(C)cc2c(C(C)C)c(O)c(O)c(C=N[C@@H](CC(C)C)C(=O)O)c2c1O.[Na+].[Na+],53.99 µM
CCC(Cl)C1(c2ccc(F)cc2)OC(=O)c2ccc(C)cc21,252 µM
CCOC(=O)C(N)(C1=CNC2C(C)=CC=CC12)C(F)(F)F,>133 µM
O=C1OC(c2ccc(F)cc2)(C(Cl)c2ccccc2)c2ccccc21,227 µM
CCOC(=O)C(O)(c1c[nH]c2ccc(Br)cc12)C(F)(F)F,34.14 µM
CCOC(=O)C(N)(c1c[nH]c2ccc(F)cc12)C(F)(F)F,>131 µM
Cc1ccc(/C=C/c2cc(Cl)c3ccccc3n2)cc1,23.23 µM
Cc1[nH]c2ccccc2c1CC(=O)NC(Cc1ccccc1)C(=O)N(C)c1ccccc1,23.5 µM
Nc1ccc(/C=C/c2cc(Cl)c3ccccc3n2)cc1,31.35 µM
COc1nc(C)nc(N2C(=O)CSC2c2c(Cl)ncnc2Cl)n1,147 µg/mL
CCOC(=O)C(O)(c1cn(CCC(C)C)c2ccccc12)C(F)(F)F,147 µM
Clc1cc(/C=C/c2ccc(N3CCOCC3)cc2)nc2ccccc12,47.89 µM
CC1=CC2=C(C(C)C)C(O)C(=O)/C(=C\N[C@H](C)C(=O)O)C2C(O)=C1c1c(C)cc2c(C(C)C)c(O)c(O)c(C=N[C@@H](C)C(=O)O)c2c1O.[Na+].[Na+],64.1 µM
Clc1cc(/C=C/c2ccc(N3CCCCC3)cc2)nc2ccccc12,137 µM
Cc1ccnc2c1NC(=O)c1cccnc1N2C1CC1,1039 µM
Cc1cn([C@H]2C[C@H](N=[N+]=[N-])[C@@H](CO)O2)c(=O)[nH]c1=O,872 µM
CCOC(=O)C(N)(c1c[nH]c2ccc(OC)cc12)C(F)(F)F,>126 µM
CC(C)(N)C(=O)O.[Na+],65.1 µM
CN(C)CCCn1c(=O)c2ccc3c(=O)n(CCCN(C)C)c(=O)c4c5[nH]c6ccccc6[nH]c5c(c1=O)c2c34,0.532 µM
COC(=O)C(N)(c1c[nH]c2ccc(OC)cc12)C(F)(F)F,132 µM
CCOC(=O)C(O)(c1c[nH]c2ccc(C(=O)OC)cc12)C(F)(F)F,135 µM

CCn is the concentration with n% toxicity to the cells.